Results of unrelated studies side by side (data: NIAID ChemDB).

Common to all: whole-cell or culture tests; agent: Aspergillus fumigatus; read-out: MIC100

Rows are shuffled and stem from different studies. A number after MIC or MFC names an inhibition level or a share of isolates.

{"structure": "CC(C)=CCC/C(C)=C/CC/C(C)=C/CC/C=C(/C)CC/C(C)=C\\CO", "strain": "ATCC 16404", "read by": "broth dilution", "result": "125 µg/mL"}
{"structure": "CC1/C=C/C=C/C=C/C=C/C(O[C@@H]2O[C@H](C)[C@@H](O)[C@H](N)[C@@H]2O)CC2OC(O)(CC(O)CC(O)C(O)/C=C/C(=O)OC1C)CC(O)C2C(=O)O", "strain": "CGMCC 3.3552", "read by": "broth dilution", "result": "25 µg/mL"}
{"structure": "CCC(C)n1ncn(-c2ccc(N3CCN(c4ccc(OC[C@H]5CO[C@](Cn6cncn6)(c6ccc(Cl)cc6Cl)O5)cc4)CC3)cc2)c1=O", "strain": "MRCM 24290", "read by": "broth dilution / visual reading", "result": ">8 µg/mL"}
{"structure": "Cc1nc(OCc2nc(-c3ccc(Cl)cc3)n[nH]2)c2ccccc2n1", "strain": "MTCC 343", "result": "50 µg/mL"}
{"structure": "C=CC(C)(O)CC/C=C(\\C)CCC=C(C)C", "strain": "ATCC 16404", "read by": "broth dilution", "result": "62.5 µg/mL"}
{"structure": "O=C1CSC2(CCc3ccccc32)N1n1c(COc2ccc(Cl)cc2Cl)n[nH]c1=S", "result": "25 µg/mL"}
{"structure": "C[C@H]1[C@H](O)[C@@H](C)/C=C/C=C/C=C/C=C/C=C/C=C/C=C/[C@H](O[C@@H]2O[C@H](C)[C@@H](O)[C@H](N)[C@@H]2O)C[C@@H]2O[C@](O)(C[C@@H](O)C[C@@H](O)CC[C@H](O)[C@@H](O)C[C@@H](O)CC(=O)O[C@H]1C)C[C@H](O)[C@H]2C(=O)O", "strain": "ATCC 204305", "read by": "broth dilution", "conditions": "48 h", "result": "0.5 µg/mL"}
{"structure": "FC(F)(F)c1nc(OCc2nc(-c3ccco3)n[nH]2)c2ccccc2n1", "strain": "MTCC 343", "result": "25 µg/mL"}
{"structure": "Cc1ccc(OCc2n[nH]c(=S)n2N2C(=O)CSC23CCc2ccccc23)cc1", "result": "6.25 µg/mL"}
{"structure": "COc1ccc(-c2n[nH]c(COc3nc(C)nc4ccccc34)n2)cc1", "strain": "MTCC 343", "result": "25 µg/mL"}
{"structure": "CC(C)=CCc1ccc(C2C(=O)O/C(=C\\c3ccc(O)cc3)C2C)cc1O", "read by": "broth dilution", "result": "17.06 µg/mL"}
{"structure": "O=C1CSC2(CCc3ccccc32)N1n1c(-c2ccc(Cl)cc2Cl)n[nH]c1=S", "result": "6.25 µg/mL"}
{"structure": "Oc1ccc(-c2n[nH]c(COc3ncnc4ccccc34)n2)cc1", "strain": "MTCC 343", "result": "25 µg/mL"}
{"structure": "CCC1/C=C/C=C/C=C/C=C/C(OC2OC(C)C(O)C(N)C2O)CC2OC(O)(CC(O)CC(O)C/C=C/C(=O)OC1C)CC(O)C2C(=O)O", "strain": "ATCC 3.13", "read by": "broth dilution", "result": "3.13 µg/mL"}
{"structure": "Cc1nc(OCc2nc(-c3ccco3)n[nH]2)c2ccccc2n1", "strain": "MTCC 343", "result": "12.5 µg/mL"}
{"structure": "O=C1CSC2(CCc3ccccc32)N1n1c(-c2ccc(Cl)cc2)n[nH]c1=S", "result": "12.5 µg/mL"}